Results of unrelated studies side by side (data: NIAID ChemDB).

All rows: tests on isolated targets; species: Hepatitis C virus; target: NS3/NS4A protease

Conditions beyond the fields shown may differ between rows. An empty or dashed field is not shown. ICn: concentration for n% inhibition. Inhibition is in % at the dose shown (toxicity tests: loss of growth or viability). Two numbers with a dash give a range or band.

structure | strain | method | measure | tested at | result
C=CCNC(=O)C(=O)C(CCC)NC(=O)[C@H]1C(C(=O)[C@@H](NC(=O)[C@@H](NC(=O)[C@H](CCC(=O)O)NC(=O)[C@H](CCC(=O)O)NC(C)=O)C(C)C)C(C)C)NC(=O)N1Cc1ccccc1 | - | - | Ki | - | 1 µM
CCC[C@H](NC(=O)[C@@H]1[C@@H](C2CCCCC2)CCN1C(=O)[C@H](NC(=O)[C@H](NC(=O)c1cnccn1)C1CCCCC1)C(C)(C)C)C(=O)C(=O)NC1CC1 | Hepatitis C virus | - | Ki | - | 0.1 µM
C=CCNC(=O)C(=O)C(CCC)NC(=O)[C@H]1C(C(=O)[C@@H](NC(=O)[C@@H](NC(=O)[C@H](CCC(=O)O)NC(=O)[C@H](CCC(=O)O)NC(C)=O)C(C)C)C(C)C)NC(=O)N1CC(=O)OCC | - | - | Ki | - | 4 µM
C=CC1CC1(NC(=O)[C@@H]1C[C@@H](OC(=O)Nc2cc(C(F)(F)F)ccc2N2CCCC2)CN1C(=O)[C@@H](NC(=O)OC(C)(C)C)C(C)(C)C)C(=O)NS(=O)(=O)C1CC1 | BMS/H77C/J416S | - | IC50 | - | <0.1 µM
Cc1ccccc1NC(=O)c1c(O)cc(O)c([N+](=O)[O-])c1O | - | HPLC | inhibition | 100 µg/mL | 77.8%
CC[C@@H]1C[C@]1(NC(=O)[C@@H]1C[C@@H](Oc2cc(-c3ccccc3)nc3cc(OC)ccc23)CN1C(=O)[C@@H](NC(=O)OC(C)C)C(C)C)C(=O)NS(=O)(=O)C1CC1 | BMS | - | IC50 | - | <0.05 µM
CCC[C@H](NC(=O)[C@@H]1[C@@H](C(C)(C)C)CCN1C(=O)[C@H](NC(=O)[C@H](NC(=O)c1cnccn1)C1CCCCC1)C(C)(C)C)C(=O)C(=O)NC1CC1 | Hepatitis C virus | - | Ki | - | 0.46 µM
C=CC1CC1(NC(=O)[C@@H]1C[C@@H](OC(=O)Nc2c(F)cccc2F)CN1C(=O)[C@@H](NC(=O)OC(C)(C)C)C(C)(C)C)C(=O)O | BMS/H77C/J416S | - | IC50 | - | >10 µM
CC(C)(C)[C@H](NC(=O)[C@@H](NS(=O)(=O)c1cnccn1)C1CCCCC1)C(=O)N1C[C@H]2[C@@H]([C@H]1C(=O)NC(CC1CC1)C(=O)C(N)=O)C2(C)C | - | - | Ki | - | 0.02 µM
CC[C@@H](C=O)NC(=O)[C@@H]1C[C@@H](OCc2ccccc2)CN1C(=O)[C@H](NC(=O)[C@H](NC(=O)c1cnccn1)C(C)C)C(C)C | - | - | Ki | - | 12 µM
CC(=O)CC(NC(C)=O)C(=O)N[C@@H](CCC(=O)O)C(=O)NC(C(=O)N[C@@H](CCC(=O)O)C(=O)NC(CC1CCCCC1)C(=O)N[C@@H](CC(F)F)C(=O)O)C(c1ccccc1)c1ccccc1 | - | - | Ki | - | 0.021 µM
C=C[C@H]1C[C@@]1(NC(=O)[C@@H]1C[C@@H](Oc2cc(-c3ccccc3)nc3cc(OC)ccc23)CN1C(=O)[C@@H](NC(=O)C1CCOCC1)C(C)(C)C)C(=O)NS(=O)(=O)C1(Cc2ccccc2)CC1 | BMS | - | IC50 | - | <0.05 µM
C=C[C@@H]1C[C@]1(NC(=O)[C@@H]1C[C@@H](Oc2cc(-c3ccccc3)nc3cc(OC)ccc23)CN1C(=O)[C@@H](NC(=O)OC(C)(C)C)C(C)(C)C)C(=O)NS(=O)(=O)c1ccccc1[N+](=O)[O-] | BMS | - | IC50 | - | <0.05 µM
CCCCCCCNC(=O)c1c(O)cc(O)c([N+](=O)[O-])c1O | - | HPLC | inhibition | 100 µg/mL | 86.8%
C=CC1CC1(NC(=O)[C@@H]1C[C@@H](OC(=O)Nc2sc3c(c2C(=O)OCC)CCCC3)CN1C(=O)[C@@H](NC(=O)OC(C)(C)C)C(C)(C)C)C(=O)NS(=O)(=O)C1CC1 | BMS/H77C/J416S | - | IC50 | - | 0.1–1 µM
Cc1cccc(NC(=O)c2c(O)cc(O)c([N+](=O)[O-])c2O)c1 | - | HPLC | inhibition | 100 µg/mL | 90.4%
CCCC(NC(=O)[C@@H]1C[C@@H](OC(=O)N2CCc3ccccc3C2)CN1C(=O)[C@H](NC(=O)[C@H](NC(=O)c1cnccn1)C(C)C)C(C)C)C(=O)C(=O)N[C@@H](C)C(=O)O | - | - | Ki | - | <0.2 µM
C=C[C@@H]1C[C@]1(NC(=O)[C@@H]1C[C@@H](Oc2cc(-c3ccccc3)nc3cc(OC)ccc23)CN1C(=O)[C@@H](NC(=O)OC(C)(C)C)C(C)(C)C)C(=O)NS(=O)(=O)c1cccc(Cl)c1 | BMS | - | IC50 | - | <0.05 µM
C=CC1CC1(NC(=O)[C@@H]1C[C@@H](OC(=O)Nc2ccccc2I)CN1C(=O)[C@@H](NC(=O)OC(C)(C)C)C(C)(C)C)C(=O)NS(=O)(=O)C1CC1 | BMS/H77C/J416S | - | IC50 | - | <0.1 µM
C=CCOC(=O)CNC(=O)C(=O)C(CCC)NC(=O)[C@H]1C(C(=O)[C@@H](NC(=O)[C@@H](NC(=O)[C@H](CCC(=O)O)NC(=O)[C@H](CCC(=O)O)NC(C)=O)C(C)C)C(C)C)NC(=O)N1Cc1ccccc1 | - | - | Ki | - | 1 µM
C=CC1C[C@@]1(NC(=O)[C@@H]1C[C@@H](Oc2cc(-c3ccccc3)nc3cc(OC)ccc23)CN1C(=O)[C@@H](NC(=O)Oc1ccc(OC)cc1)C(C)(C)C)C(=O)NS(=O)(=O)C1(Cc2ccccc2)CC1 | BMS | - | IC50 | - | 0.05–0.5 µM
CCC[C@H](NC(=O)[C@@H]1[C@@H](C(CC)CC)CCN1C(=O)[C@H](NC(=O)[C@H](NC(=O)c1cnccn1)C1CCCCC1)C(C)(C)C)C(=O)C(=O)NC1CC1 | Hepatitis C virus | - | Ki | - | 0.33 µM
C=CC1CC1(NC(=O)[C@@H]1C[C@@H](Oc2cc(-c3ccccc3)nc3cc(OC)ccc23)CN1C(=O)[C@@H](NC(=O)CC1CC1)C(C)(C)C)C(=O)NS(=O)(=O)C1(C)CC1 | BMS | - | IC50 | - | <0.05 µM
O=C(Nc1cccc(Cl)c1Cl)c1c(O)cc(O)c([N+](=O)[O-])c1O | - | HPLC | inhibition | 100 µg/mL | 96.1%
C=CC1CC1(NC(=O)[C@@H]1C[C@@H](Oc2cc(-c3ccccc3)nc3cc(OC)ccc23)CN1C(=O)[C@@H](NC(=O)OC(C)(C)C)C(C)(C)C)C(=O)NS(=O)(=O)C1(C(=O)NCCC)CC1 | BMS | - | IC50 | - | <0.05 µM
CCC[C@H](NC(=O)[C@@H]1[C@@H](C(C)C)CCN1C(=O)[C@H](NC(=O)[C@H](NC(=O)c1cnccn1)C1CCCCC1)C(C)(C)C)C(=O)C(=O)NC1CC1 | Hepatitis C virus | - | Ki | - | 0.09 µM
C=C[C@H]1C[C@@]1(NC(=O)[C@@H]1C[C@@H](Oc2cc(-c3ccccc3)nc3cc(OC)ccc23)CN1C(=O)[C@@H](NC(=O)O[C@@H]1CCOC1)C(C)(C)C)C(=O)NS(=O)(=O)C1(Cc2ccccc2)CC1 | BMS | - | IC50 | - | <0.05 µM
C=CC1CC1(NC(=O)[C@@H]1C[C@@H](OC(=O)Nc2c(C)cccc2C)CN1C(=O)[C@@H](NC(=O)OC(C)(C)C)C(C)(C)C)C(=O)NS(=O)(=O)C1CC1 | BMS/H77C/J416S | - | IC50 | - | 1–10 µM
C=CC1CC1(NC(=O)[C@@H]1C[C@@H](Oc2cc(-c3ccccc3)nc3cc(OC)ccc23)CN1C(=O)[C@@H](NC(=O)OC(C)(C)C)C(C)(C)C)C(=O)NS(=O)(=O)C1(C(=O)Nc2c(C)noc2C)CC1 | BMS | - | IC50 | - | <0.05 µM
C=CC1CC1(NC(=O)[C@@H]1C[C@@H](OC(=O)Nc2c(C)nn(C)c2C)CN1C(=O)[C@@H](NC(=O)OC(C)(C)C)C(C)(C)C)C(=O)NS(=O)(=O)C1CC1 | BMS/H77C/J416S | - | IC50 | - | 1–10 µM
C=CC1CC1(NC(=O)[C@@H]1C[C@@H](Oc2cc(-c3ccccc3)nc3cc(OC)ccc23)CN1C(=O)[C@@H](NC(=O)OC(C)(C)C)C(C)(C)C)C(=O)NS(=O)(=O)c1ccc([N+](=O)[O-])cc1 | BMS | - | IC50 | - | <0.5 µM
C=CC1CC1(NC(=O)[C@@H]1C[C@@H](OC(=O)Nc2cccc(C(=O)OCC)c2)CN1C(=O)[C@@H](NC(=O)OC(C)(C)C)C(C)(C)C)C(=O)NS(=O)(=O)C1CC1 | BMS/H77C/J416S | - | IC50 | - | 0.1–1 µM
COc1ccc2c(O[C@@H]3C[C@@H](C(=O)NC4(C(=O)NS(=O)(=O)C5CC5)CCC45CC5)N(C(=O)[C@@H](NC(=O)OC(C)(C)C)C(C)(C)C)C3)cc(-c3ccccc3)nc2c1 | BMS | - | IC50 | - | <0.5 µM
O=C(NCCOc1ccc(Oc2ccccc2)cc1)c1c(O)cc(O)c([N+](=O)[O-])c1O | - | HPLC | inhibition | 100 µg/mL | 71%

Repeating the first 2 entries:

structure,strain,method,measure,tested at,result
C=CCNC(=O)C(=O)C(CCC)NC(=O)[C@H]1C(C(=O)[C@@H](NC(=O)[C@@H](NC(=O)[C@H](CCC(=O)O)NC(=O)[C@H](CCC(=O)O)NC(C)=O)C(C)C)C(C)C)NC(=O)N1Cc1ccccc1,-,-,Ki,-,1 µM
CCC[C@H](NC(=O)[C@@H]1[C@@H](C2CCCCC2)CCN1C(=O)[C@H](NC(=O)[C@H](NC(=O)c1cnccn1)C1CCCCC1)C(C)(C)C)C(=O)C(=O)NC1CC1,Hepatitis C virus,-,Ki,-,0.1 µM